Viability of fungi data for one compound are collected here from patent publication US8329685B1, “Enhancement of the action of anti-infective agents and of central and peripheral nervous system agents and transportation of nucleic acid substances” (priority 2001, dated 2012).

The test system of the data set is Fungi of the mycosis type. Particulars: 0.4% final concentration.

Like-named read-outs stand apart in the source and are kept apart here.

`Clc1ccc(COC(Cn2ccnc2)c2ccc(Cl)cc2Cl)c(Cl)c1` (stereo not shown) [Free Miconazole, Miconazole nitrate]: the viability of fungi was found to be 80% (30 min after single exposure), 70% (4 hours after single exposure), 30% (11 days after single exposure) and 15% (18 days after single exposure).
